# Experimental data: PubChem BioAssay AID1259414 (Drosophila RNAi Screening Center, 2018)
# Assay: 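Genome-wide screen for host control of endosymbiont load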 (primary screen)
# Cells: Drosophila JW18 cells infected with Wolbachia
# Reagent: long dsRNA against Drosophila genes, 0.25 µg dsRNA per well of a 384-well plate
# Time to read-out: 5 days
# Conditions: cells persistently infected with Wolbachia before knock-down; no added drug
# Read-out: 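Imaged fluorescence in situ signal for Wolbachia 23S rRNA per DAPI-counted host cell, given as a robust z-score within each plate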
# Reading the numbers: Wolbachia per cell robust z: higher = more Wolbachia per host cell than the plate typical
# Rule for the call: 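Active if absolute robust z reaches 1.5 in two or more of three replicates, leaving out multi- or no-target dsRNAs, genes unexpressed in JW18 and A1 wells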
# In all, the deposit lists about 24,000 reagents; below is a random part of those that have a named target and a result. Of all reagents, about 1,210 (5%) are marked active. 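Inactive calls also include excluded dsRNAs with several or no targets, genes unexpressed in JW18, and well A1, regardless of score.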 Reagents against one gene are numbered here. Names joined by + are all predicted targets of the reagent. No sequences are given here.
target gene,reagent no.,"Wolbachia per cell robust z, rep 1","Wolbachia per cell robust z, rep 2","Wolbachia per cell robust z, rep 3",activity call
lncRNA:CR34052 (GeneID 12798098),1,1.66,1.36,1.41,inactive
CG40298 (GeneID 3355149),1,-0.147,-1.13,-1.31,inactive
GstO3 (GeneID 38972),1,0.4,0.28,-0.338,inactive
CG33233 (GeneID 2769005),1,0.449,-1.59,-0.757,inactive
pHCl-1 (GeneID 39730),1,0.242,0.794,0.54,inactive
pHCl-1 (GeneID 39730),2,0.164,-1.43,-0.306,inactive
pHCl-1 (GeneID 39730),3,-7.01,-1.48,0.929,inactive
pHCl-1 (GeneID 39730),4,-0.00895,0.138,-0.117,inactive
CG4367 (GeneID 42409),1,-0.411,0.396,0.508,inactive
CG34026 (GeneID 3885569),1,0.43,0.938,0.179,inactive
mars (GeneID 36498),1,-0.25,0.218,0.519,inactive
CG12480 (GeneID 32359),1,0.509,-4.94,0.931,inactive
CG12480 (GeneID 32359),2,-2.03,-1.15,-1.7,inactive
CG13008 (GeneID 32654),1,0.626,0.231,0.787,inactive
CG13008 (GeneID 32654),2,-1.16,0.195,0.493,inactive
glob1 (GeneID 41930),1,0.468,0.145,0.771,inactive
CG11703 (GeneID 42307),1,-0.0522,0.548,0.0985,inactive
CG11703 (GeneID 42307),2,-9.31,0.162,0.448,inactive
CG8243 (GeneID 35890),1,-0.26,0.647,0.437,inactive
CG8243 (GeneID 35890),2,0.368,-0.086,0.707,inactive
Nelf-E (GeneID 38982),1,0.675,-0.602,0.44,inactive
zf30C (GeneID 34292),1,0.551,-1.19,1.65,inactive
CG42496 + Ppcdc,1,0.394,0.165,0.46,inactive
Met (GeneID 32114),1,-4.41,-2.2,-0.649,active
Met (GeneID 32114),2,0.227,-0.845,0.0238,inactive
eIF2A (GeneID 40431),1,0.119,-0.0568,-0.216,inactive
BHD (GeneID 38793),1,-2.97,-0.56,-1.17,inactive
BHD (GeneID 38793),2,-1.12,-1.36,-2.69,inactive
BHD (GeneID 38793),3,-0.247,0.199,-0.872,inactive
Hou (GeneID 32852),1,-2.47,-1.48,-1.26,inactive
Hou (GeneID 32852),2,-0.199,-0.332,0.0758,inactive
Hou (GeneID 32852),3,-0.41,-0.393,0.324,inactive
sphinx2 (GeneID 38833),1,0.238,-0.735,1.47,inactive
sphinx2 (GeneID 38833),2,-0.395,-0.8,0.085,inactive
bor (GeneID 53565),1,0.75,-3.49,-1.97,active
CG17168 (GeneID 3354996),1,0.743,-0.793,0.511,inactive
CG17168 (GeneID 3354996),2,0.0214,0.642,0.567,inactive
CG3088 (GeneID 39115),1,-0.952,0.988,-0.315,inactive
CG15473 (GeneID 31401),1,-2.51,-3.14,-2.11,inactive
inaF-B + inaF-D + inaF-C + 1 more,1,-1.02,-2.05,-0.35,inactive
alrm (GeneID 43074),1,0.741,0.106,-0.424,inactive
CG34057 (GeneID 3885645),1,0.841,-0.911,-0.257,inactive
CG5282 (GeneID 40256),1,-2.29,-0.876,-3.11,inactive
KLHL18 (GeneID 41458),1,1.25,-7.47,0.985,inactive
KLHL18 (GeneID 41458),2,-1.27,-0.636,-0.0935,inactive
CG40198 (GeneID 3354922),1,-0.924,-0.581,-1.14,inactive
CG14115 (GeneID 39487),1,0.269,0.0547,-0.648,inactive
lncRNA:CR43242 (GeneID 12798537),1,-2.93,0.304,-4.01,active
CG31086 + CG31323,1,-3.8,0.497,-0.395,inactive
CG31086 + CG31323,2,-0.222,0.0556,1.17,inactive
Tgi (GeneID 39521),1,0.916,-0.956,1.05,inactive
Tgi (GeneID 39521),2,1.03,2.01,0.116,inactive
Tgi (GeneID 39521),3,-0.568,-2.1,-1.02,inactive
Wdfy2 (GeneID 34425),1,0.696,-0.00704,1.58,inactive
Wdfy2 (GeneID 34425),2,-0.181,-5.66,0.438,inactive
sel (GeneID 36046),1,-0.132,-1.33,0.67,inactive
Uro (GeneID 34060),1,-1.03,-0.855,-0.393,inactive
CG13362 (GeneID 31018),1,1.36,0.679,1.28,inactive
CG13362 (GeneID 31018),2,0.675,0.306,-0.518,inactive
DIP-beta (GeneID 33125),1,-1.28,0.16,-0.127,inactive
DIP-beta (GeneID 33125),2,-1.67,0.148,-1.67,inactive
DIP-beta (GeneID 33125),3,-0.306,0.0179,-0.339,inactive
DIP-beta (GeneID 33125),4,0.613,-0.398,0.617,inactive
CG43386 + CG1889,1,0.766,0.852,1.09,inactive
kud (GeneID 39882),1,-0.661,-1.64,-1.38,inactive
Shc (GeneID 44052),1,-1.1,0.218,0.247,inactive
CG13538 (GeneID 37667),1,0.255,0.525,0.325,inactive
Abi (GeneID 41718),1,0.959,0.757,0.307,inactive
Abi (GeneID 41718),2,-0.0765,1.96,1.19,inactive
CR6900 (GeneID 14462413),1,-0.775,-0.399,0.187,inactive
geko (GeneID 50263),1,-0.15,-8.82,0.644,inactive
geko (GeneID 50263),2,0.148,0.756,-0.648,inactive
Gr93a (GeneID 42568),1,-2.08,-1.14,-1.67,inactive
Arp5 (GeneID 42173),1,-0.345,-0.832,-0.433,inactive
Arp5 (GeneID 42173),2,-1.04,-0.719,0.201,inactive
CG18449 (GeneID 35810),1,-2.96,1.12,0.613,inactive
sun (GeneID 44046),1,0.318,-1.65,1.06,inactive
sun (GeneID 44046),2,-0.26,0.099,-0.776,inactive
KdelR (GeneID 34427),1,1.61,2.08,2.03,active
Mon1 (GeneID 33689),1,-0.446,-0.839,-0.512,inactive
Mon1 (GeneID 33689),2,0.494,0.623,1.93,inactive
Cyp313a1 (GeneID 41759),1,0.666,0.371,0.259,inactive
Cyp313a1 (GeneID 41759),2,0.38,0.225,0.174,inactive
Cec-Psi1 (GeneID 3772648),1,-0.401,-2.23,-0.406,inactive
CG17477 (GeneID 42067),1,-1.56,0.25,0.441,inactive
CG17477 (GeneID 42067),2,-0.102,0.124,-0.108,inactive
ATPsynbeta (GeneID 43829),1,-0.165,1.12,0.767,inactive
ATPsynbeta (GeneID 43829),2,0.0595,0.967,1.13,inactive

Single entries from above.
Value for BHD (GeneID 38793) #2 in “Wolbachia per cell robust z, rep 2”: -1.36
For “activity call”, Tgi (GeneID 39521) #2 is entered as inactive
Entry for CG17168 (GeneID 3354996) #2 under “activity call”: inactive
Result of CG34057 (GeneID 3885645) under “Wolbachia per cell robust z, rep 3”: -0.257
CG8243 (GeneID 35890) #2, activity call = inactive
